Anti-infective test results gathered from many reports (values: NIAID ChemDB through PubChem).

All rows: tests in culture; species: HIV-1

Inhibition is in % at the dose shown (toxicity tests: loss of growth or viability).

SMILES,dose,strain or isolate,cells,method,measure,mutations,value
Nc1nc2c(ncn2[C@H]2C=C[C@@H](CO)C2)c(=O)[nH]1,-,-,MT-4,-,EC80,-,50 µM
CC1(C)C=Cc2c(ccc3ccc(=O)oc23)O1,-,-,SupT1 + Sup-T1,MTT,EC10,-,80 µg/mL
CC(c1cccc2ccccc12)n1c(=O)c(O)c2n(c1=O)CCN(Cc1ccc(F)cc1)C2=O,-,-,MT-4,p24,EC95,-,<10 µM
C[C@@H]1CCO[C@H]2Cn3cc(C(=O)NCc4ccc(F)cc4F)c(=O)c(O)c3C(=O)N12,-,NL4-3,MT-4,luminescence,fold resistance,PI-resistant ARP-11803 (L33F/E34T/K43T/G48V/I54S/L63P/A71V/V82A),1
Cc1ccc(-c2ccc3c(c2)C=C(C(=O)Nc2ccc(C[N+](C)(C)C4CCOCC4)cc2)CCC3)cc1,5 µM,PCP1 CLADE C,PBMC,p24,inhibition,-,94.4%
Cc1cc(CNC(=O)c2nc3n(c(=O)c2O)CCN(CC2CC2)CC3N(C)C(=O)C(=O)N(C)C)ccc1F,-,-,MT-4,p24,EC95,-,<1 µM
CC(C)n1c(=O)c(O)c2n(c1=O)C(CCN(C)S(C)(=O)=O)CN(Cc1ccc(F)cc1)C2=O,-,-,MT-4,p24,EC95,-,<10 µM
CCCOC(=O)c1cc(O)c(O)c(O)c1,-,-,PBMC,p24 / ELISA,EC95,-,0.005–0.01 µg/mL
Cc1cc(C#N)cc(C(=O)c2cc(Cl)ccc2OCC(=O)Nc2ccc(OCCCN3CC=CC3)cc2C)c1,-,HXB2,HeLa + HELA CD4+,β-galactosidase,fold resistance,RT-Y181C,~1
O=C(c1ccccc1)N(CCc1ccccc1)C[C@H](O)CN(CC1CCCC1)S(=O)(=O)c1cc(C(F)(F)F)cc2[nH]cnc12,-,IIIB,CEM,p24,EC90,-,1 µM
Cc1ccc(C2CC2)c(-c2ccc3c(c2C)CCCO3)c1[C@H](OC(C)(C)C)C(=O)O,-,NL4-3,MT-4,luminescence,fold resistance,PI-resistant ARP-11801 (L10F/G16A/L33F/K43T/L63P/A71V/V82A),1
CC(C)=CCOc1cc(NC(=S)c2ccoc2C)ccc1Cl,-,UC82-R (RT-Y181C),CEM + CEM-SS,cytopathic effect / XTT,fold resistance,RT-Y181C,122
Cc1cc(C)cc(C(=O)c2cc(Cl)ccc2OCC(=O)Nc2ccc(S(N)(=O)=O)cc2C)c1,-,HXB2,HeLa + HELA CD4+,β-galactosidase,fold resistance,RT-Y181C,~1
CC(C)=CCOc1cc(NC(=S)c2ccsc2C)ccc1Cl,-,NL4-3 (RT Y188C),CEM + CEM-SS,cytopathic effect / XTT,fold resistance,RT-Y188C,1
Nc1nc(NC2CC2)c2ncn([C@H]3C=C[C@@H](CO)C3)c2n1,-,XM-M184V,MT-4,p24,EC90,RT-M184V,9.5 µM
COc1cc(C[C@H]2C(=O)OC[C@@H]2Cc2ccc(OC)c(OC)c2)ccc1O,-,IIIB,H9,RT activity,EC80,-,0.05–0.9 µM
O=C1c2c(O)c(=O)n(CC3(N4CCOCC4)CCCC3)c(=O)n2CCN1Cc1ccc(F)cc1,-,-,MT-4,p24,EC95,-,<10 µM
CC(C)=CCN1Cc2cccc3[nH]c(=O)n(c23)CC1C,-,UC10-resistant (RT Y181C K101E),CEM + CEM-SS,cytopathic effect / XTT,fold resistance,RT-Y181C K101E,>350
CN(C[C@@H](CCN1CCC2(CC1)CS(=O)c1ccccc12)c1ccc(Cl)c(Cl)c1)S(=O)(=O)c1ccccc1,-,YU2,PBMC,-,EC95,-,<12 µM
C[C@H]1[C@H](O)[C@@H](C)/C=C/C=C/C=C/C=C/C=C/C=C/C=C/[C@H](O[C@@H]2O[C@H](C)[C@@H](O)[C@H](N)[C@@H]2O)C[C@@H]2O[C@](O)(C[C@@H](O)C[C@@H](O)CC[C@H](O)[C@@H](O)C[C@@H](O)CC(=O)O[C@H]1C)C[C@H](O)[C@H]2C(=O)O,21.2 µM,93TH073 CLADE E R5 (NSI),PBMC,p24 / RT activity,inhibition,-,90%
Cc1cc(S(N)(=O)=O)ccc1NC(=O)COc1ccc(Cl)cc1C(=O)c1cc(F)cc(F)c1,-,Nevirapine-resistant (RT Y181C),MT-4,cytopathic effect / propidium iodide,fold resistance,RT-Y181C,~1
O=C1c2c(O)c(=O)n(-c3ccc(N4CCOCC4)nc3)c(=O)n2CCN1Cc1ccc(F)cc1,-,-,MT-4,p24,EC95,-,<10 µM
CC(C)CN(C[C@@H](O)CCN(CC1CCCC1)S(=O)(=O)c1ccc(O)cc1)S(=O)(=O)c1ccc(O)cc1,-,IIIB,CEM,p24,EC90,-,0.1 µM
Cc1ccc(C)n1-c1ccc(C(=O)O)c(O)c1,-,RU570 R5 CLADE G,PBMC + MT-2,p24,EC90,-,209 µM
O=C1c2c(O)c(=O)n(C3CCCCC3N3CCOCC3)c(=O)n2CCN1Cc1ccc(F)cc1,-,-,MT-4,p24,EC95,-,<10 µM
CC(C)N1CCn2c(nc(C(=O)NCc3ccc(F)cc3)c(O)c2=O)C(N(C)C(=O)C(=O)N(C)C)C1,-,-,MT-4,p24,EC95,-,<1 µM
Cc1cc(OCCCS(N)(=O)=O)ccc1NC(=O)COc1ccc(Cl)cc1C(=O)c1cc(F)cc(C(F)(F)F)c1,-,Nevirapine-resistant (RT Y181C),MT-4,cytopathic effect / propidium iodide,fold resistance,RT-Y181C,~1
Nc1nc(=O)n([C@H]2C=C[C@@H](CO)O2)cc1F,-,XM-AZT-resistant,PBMC,p24,EC90,RT-M41L D67N K70R T215Y K219Q,1.1 µM
O=C(NC(Cc1ccccc1)C(=O)C(=O)C(=O)N(CC1CCCC1)S(=O)(=O)c1ccccc1)O[C@H]1CCOC1,-,IIIB,CEM,p24,EC90,-,1 µM
CCC(=O)c1ccc(F)c([C@@H]2C[C@@H]2NC(=O)Nc2ccc(C#N)cn2)c1O,-,LAI,TZM-bl,β-galactosidase / luminescence,fold resistance,NNRTI-resistant (RT Y188L),≥100
Cc1cc2cn[nH]c2cc1NC(=O)COc1ccc(Cl)cc1C(=O)c1cccc(C#N)c1,-,HXB2,HeLa + HELA CD4+,β-galactosidase,fold resistance,RT-K103N P225H,~1
CN(C)C(=O)C(=O)N1CCn2c(nc(C(=O)NCc3ccc(F)cc3)c(O)c2=O)C(N(C)C(=O)C(=O)N(C)C)C1,-,-,MT-4,p24,EC95,-,<1 µM
COc1ccc(-n2c(=O)c(O)c3n(c2=O)CCN(Cc2ccc(F)cc2)C3=O)cn1,-,-,MT-4,p24,EC95,-,<10 µM
CC(C)=CCOc1cc(NC(=S)c2ccsc2C)ccc1Cl,-,NL4-3,CEM + CEM-SS,p24,fold resistance,RT-Y181C,5
CCc1cc(C#N)cc(C(=O)c2cc(Cl)ccc2OCC(=O)Nc2ccc(S(N)(=O)=O)cc2C)c1,-,HXB2,HeLa + HELA CD4+,β-galactosidase,fold resistance,RT-L100I,~1
CN(C)C(=O)C(=O)N(C)CC1c2nc(C(=O)NCc3ccc(F)cc3)c(O)c(=O)n2CCN1C,-,-,MT-4,p24,EC95,-,1–10 µM
O=C(c1ccccc1)N(CCc1ccccc1)C[C@H](O)CN(CC1CCCC1)S(=O)(=O)C1CCCOC1,-,IIIB,CEM,p24,EC90,-,1 µM
Cc1c(O)cccc1C(=O)N[C@@H](Cc1ccccc1)C(O)CN1C[C@H]2CCS[C@H]2C[C@H]1C(=O)NC(C)(C)C,-,HXB2,CEM + CEM-SS,cytopathic effect / XTT,EC95,-,1.36 µM
O=c1oc2cc(O)cc(O)c2c(O)c1-c1coc2c1c(=O)oc1cc(O)cc(O)c12,0.01 µM,IIIB,MT-4,MTT,inhibition,-,50%
Cc1cc(Cl)cc(C(=O)c2cc(Cl)ccc2OCC(=O)Nc2ccc(S(N)(=O)=O)cc2C)c1,-,HXB2,HeLa + HELA CD4+,β-galactosidase,fold resistance,RT-Y181C,~10

The last 3 rows once more:

SMILES,dose,strain or isolate,cells,method,measure,mutations,value
Cc1c(O)cccc1C(=O)N[C@@H](Cc1ccccc1)C(O)CN1C[C@H]2CCS[C@H]2C[C@H]1C(=O)NC(C)(C)C,-,HXB2,CEM + CEM-SS,cytopathic effect / XTT,EC95,-,1.36 µM
O=c1oc2cc(O)cc(O)c2c(O)c1-c1coc2c1c(=O)oc1cc(O)cc(O)c12,0.01 µM,IIIB,MT-4,MTT,inhibition,-,50%
Cc1cc(Cl)cc(C(=O)c2cc(Cl)ccc2OCC(=O)Nc2ccc(S(N)(=O)=O)cc2C)c1,-,HXB2,HeLa + HELA CD4+,β-galactosidase,fold resistance,RT-Y181C,~10

Blank or dashed fields: not listed here. Fold resistance: result on the changed form divided by that on wild type. Lines come from different laboratories, so protocols vary. Two numbers with a dash give a range or band. ECn: concentration that inhibits the pathogen or its effect by n%.